# Read-outs that look alike come from different tables or passages of the source.
# Test system: HXYN2
structure (smiles),measurement,setting,value
"COc1cc(/C=C/C(=O)O)ccc1O [FA, 3-(4-hydroxy-3-methoxy-phenyl-prop-2-enoic)]",Hill coefficient (N),FA 0.25 mg/mL,2.38 ± 0.21
same,Hill coefficient (N),FA 0.5 mg/mL,1.85 ± 0.96
same,Hill coefficient (N),FA 1 mg/mL,1.93 ± 0.05

# From publication PMC9259647 (Scientific Reports, 2022)
